Here are results for six molecules from the supplement of paper PMC9931576.

B1: BD56-1859 (protein)
chain 1: QVQLQESGPGLVKPSGTLSLTCAVSGGSISIINWWSWVRQPPGKGLEWIGEIHQSGNTNYSPSLKSRVTISVDKSKNQFSLKLSSVTAADTAVYYCARDRGGVGDAFDIWGQGTMVTVSS
chain 2: QSALTQPASVSGSPGQSITISCTGTGSDVGSYNYVSWYQQHPGKAPKLIIYDVSDRPSGVSHRFSGSKSGNTASLTISGLQAEDEADYYCNSYASGSTRVFGTGTKVTVL
B2: BD56-1857 (protein)
chain 1: QITLKESGPTLVKPTQTLTLTCTFSGFSLSTGGVGVGWIRKPPGKALEWLALIYWDDDKRYNPSLTSRVTVTKDTSKSQVVLTVTNIDPVDTATYYCAHYSLERLFDFWGQGTLVTVSS
chain 2: QSALTQPASVSGSPGQSITISCTGASSAVGTYNYVSWYQHHPGKAPKLMIYAVNNRPSGISNRFSGSKSGNTASLTISGLQAEDEADYYCSSYTDSSVVFGGGTKLTVL
B3: CV07-250 (protein)
chain 1: QVQLVQSEAEVKEPGASVEVSCKASGYNFTNFAISWVRQAPGQGLEWMGWISGYNGDTNSAQKFLGRVTMTTDTSTTTAYMELRSLRSDDTAVYYCAGSDNYGFPYNGMDVWGQGTTVTVSS
chain 2: QSALTQPPSASGSPGQSVTISCTGTSSDLGAYHFVTWYQHYPGKAPKVMIYGVRKRPSGVPDRFSGSKSGNTASLTVSGLQDEDEADYYCSSYAGNNDFVFGGGTKLTVL
B4: BD56-1860 (protein)
chain 1: QVQLQESGPGLVKPSQTLSLTCTVSGASISSGSYYWSWIRQPAGKGLEWIGRISTSGSTNSTSSLKSRVTISVDKSKNQFSLKLNSVTAADTAVYYCARGVEPLLGWFDPWGQGTLVTVSS
chain 2: SYVLTQPPSVAEAPGKTARVTCGGNNIGSKSVHWYQQKPGQAPVMLIYYDSERPSGIPERFSGSNSGNTATLTISRVEAGDEADYYCQVWDTSGDHPVFGGGTKLSVL
B5: BD56-1854 (protein)
chain 1: EVLLVESGGGLIQPGGSLRLSCAASEIIVSNNYMTWVRQTPGKGLEWVSVLYSGGSTFYEDSVKGRFTISRDDSENKLYLQMNSLRVEDTAVYYCARGDAMDFYYGLDVWGQGTTVTVSS
chain 2: QSVLTQPPSVSGAPGQRVTISCTGSSSNIGAGSYVHWYQHVPGTAPKLLIYADINRPSGVPDRFSGSRSGTSASLAISGLQTEDEAVYYCQSYDSSLSGSLFGGGTKLTVL
B6: BD56-1844 (protein)
chain 1: QVQLAESGGGVVQPGRSLRLSCAASGFTFSVYPMHWVRQSPGKGPEWVAVISYDGSYKYYADSVKGRVTISRDNSKNMVYLQLNSLRIDDSAVYYCARVSPRGRDYYDESGSYYVGFAELDNWGQGTLVTVSS
chain 2: DIQMTQSPSSLSASVGDRVTVTCRASQSIASHLNWYQQKSGKAPKLLIYAASTLQSGVPSRFSGSESGTDFTLTISSLQPEDFATYYCQQSYSSPYTFGQGTNLEIK

Human monoclonal antibodies against the spike receptor-binding domain (heavy:light variable regions). IC50 against pseudoviruses bearing the spike of naturally observed variants; lower = stronger; >10 µg/ml means not reached at the top dose. No active / inactive call. The stated detection limit is 0.0005 µg/ml; values near or below 0.001 µg/ml lie at the floor of the assay. Bounds are passed on as bounds.

One assay concerns the target SARS-CoV-2 Omicron BA.1 spike pseudovirus. The assay can be described thus: pseudovirus neutralization IC50; higher = weaker neutralization. Here is the method: (§1)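 Single-round VSV luciferase pseudovirus mixed with antibody dilutions for 1 h and put on Huh-7 cells for about a day; IC50 from the dose curve.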
For the molecule B1, the “pseudovirus neutralization IC50” value was above 10 µg/mL.
Still for that read-out and setting: next, B2: 0.571 µg/mL; B3: above 10 µg/mL.
Turning to B4, the “pseudovirus neutralization IC50” value amounted to 9.86 µg/mL.
Still for that read-out and setting: next, B5: 0.00108 µg/mL.
Take B6: the “pseudovirus neutralization IC50” value was above 10 µg/mL.

The target in the next assay is SARS-CoV-2 Omicron BA.2 spike pseudovirus. Described as above. As for the experimental part: as §1
For B1, the “pseudovirus neutralization IC50” value came out at 0.0442 µg/mL.
Still for that read-out and setting: the value for B2 was 0.00328 µg/mL; that for B3 was above 10 µg/mL.
In the case of B4, the “pseudovirus neutralization IC50” value was above 10 µg/mL.
In the case of B5, the “pseudovirus neutralization IC50” value amounted to 0.00296 µg/mL.
On the same count and under the same terms, the value for B6 was above 10 µg/mL.

Another assay deals with SARS-CoV-2 Omicron BA.2.75 spike pseudovirus. Described as above. Here is the method: as §1
B1: the “pseudovirus neutralization IC50” value was above 10 µg/mL.
B2: the “pseudovirus neutralization IC50” value stood at 0.131 µg/mL.
With B3, the “pseudovirus neutralization IC50” value is above 10 µg/mL.
With B4, the “pseudovirus neutralization IC50” value was determined as 3.62 µg/mL.
On the same count and under the same terms, next, B5: 0.0023 µg/mL; B6: above 10 µg/mL.

Another assay concerns the target SARS-CoV-2 Omicron BA.5 spike pseudovirus. The description is as above. Here is the method:
as §1
As for B1, the “pseudovirus neutralization IC50” value worked out at 0.018 µg/mL.
For the molecule B2, the “pseudovirus neutralization IC50” value worked out at 0.00305 µg/mL.
Take B3: the “pseudovirus neutralization IC50” value is above 10 µg/mL.
Still for that read-out and setting: the value for B4 was above 10 µg/mL; that for B5 was 0.00133 µg/mL; that for B6 was above 10 µg/mL.

For a further assay, the target named is SARS-CoV-2 Omicron BQ.1.1 spike pseudovirus. The description is as above. As for the experimental part:
as §1
Take B1: the “pseudovirus neutralization IC50” value is above 10 µg/mL.
Regarding B2, the “pseudovirus neutralization IC50” value was above 10 µg/mL.
Same read-out and setting: the value for B3 was above 10 µg/mL; that for B4 was above 10 µg/mL; that for B5 was 0.00621 µg/mL.
Still for that read-out and setting: the value for B6 was above 10 µg/mL.

The next assay concerns the target SARS-CoV-2 Omicron XBB spike pseudovirus. The assay is described as above. Here is the method:
as §1
For the molecule B1, the “pseudovirus neutralization IC50” value is above 10 µg/mL.
On the same count and under the same terms, the value for B2 was above 10 µg/mL; that for B3 was above 10 µg/mL.
As to B4, the “pseudovirus neutralization IC50” value was above 10 µg/mL.
Still for that read-out and setting: the value for B5 was 0.00891 µg/mL.
As to B6, the “pseudovirus neutralization IC50” value is above 10 µg/mL.

Another assay has as its target SARS-CoV-2 early D614G spike pseudovirus. Described as above. Here is the method:
as §1
As to B1, the “pseudovirus neutralization IC50” value was determined as 0.00839 µg/mL.
On the same count and under the same terms, the value for B2 was 0.0102 µg/mL; that for B3 was 0.00169 µg/mL; that for B4 was 0.354 µg/mL.
Take B5: the “pseudovirus neutralization IC50” value came to 0.00375 µg/mL.
On the same count and under the same terms, next, B6: 0.819 µg/mL.
